Assay results published in patent US20200408687.

Protein sequences, listed by entry. Tags and fused reporters are not part of them.
UniProt P19821, whole entry: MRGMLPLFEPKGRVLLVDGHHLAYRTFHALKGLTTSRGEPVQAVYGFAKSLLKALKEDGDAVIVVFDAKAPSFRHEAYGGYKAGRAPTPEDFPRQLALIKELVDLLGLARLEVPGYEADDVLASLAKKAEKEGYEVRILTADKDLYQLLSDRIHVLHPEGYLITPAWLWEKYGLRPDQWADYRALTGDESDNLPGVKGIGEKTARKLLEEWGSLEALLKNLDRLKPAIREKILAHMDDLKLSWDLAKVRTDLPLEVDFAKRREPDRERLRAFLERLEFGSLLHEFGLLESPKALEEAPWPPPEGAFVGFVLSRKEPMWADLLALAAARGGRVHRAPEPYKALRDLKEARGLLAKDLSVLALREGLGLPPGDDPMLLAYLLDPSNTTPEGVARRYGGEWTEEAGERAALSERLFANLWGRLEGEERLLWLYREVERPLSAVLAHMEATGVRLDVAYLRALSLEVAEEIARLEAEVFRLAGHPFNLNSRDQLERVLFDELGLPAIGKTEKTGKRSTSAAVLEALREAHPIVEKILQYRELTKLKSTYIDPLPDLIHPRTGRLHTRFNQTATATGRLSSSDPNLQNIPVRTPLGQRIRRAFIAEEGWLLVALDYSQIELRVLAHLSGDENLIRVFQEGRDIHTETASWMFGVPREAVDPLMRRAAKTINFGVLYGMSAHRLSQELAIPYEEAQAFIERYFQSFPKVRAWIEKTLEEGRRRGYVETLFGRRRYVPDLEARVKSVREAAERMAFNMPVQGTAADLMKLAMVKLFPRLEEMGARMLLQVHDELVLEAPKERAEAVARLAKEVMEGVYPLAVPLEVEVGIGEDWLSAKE

Molecular target: Taq DNA polymerase (UniProt P19821)
Experiment: inhibition of the protein
Conditions: negligible signal with off-target bacterial samples (10^6 CFU of other species); purified recombinant protein; single-stranded DNA; dose not given here

CAATGTACAGTATTGTGGAGGAAGGGAGTAAAGTTAAT [Escherichia detection key without its target]
functional effect of the aptamer: not active

A negative result means that nothing was seen under these conditions.
